The test in a line: Inhibition of wild type HIV-1 3B reverse transcriptase infected in human MT4 cells assessed as inhibition of viral replication after 5 days by cell titer glo based luciferase reporter gene assay. Conditions: Human immunodeficiency virus 1, 3B, MT4, 120 h.

Turning to `Cc1cc(C#N)cc(C)c1Oc1nc(Nc2ccc(C#N)cc2)nc(N)c1Br` [ETRAVIRINE], the EC50 amounted to 2 nM.

The values above are taken from ChEMBL document CHEMBL3865796, “Novel (2,6-difluorophenyl)(2-(phenylamino)pyrimidin-4-yl)methanones with restricted conformation as potent non-nucleoside reverse transcriptase inhibitors against HIV-1” (Eur J Med Chem, 2016).
